The source of these data is patent publication US10913736B2 (UNIVERSITY OF WASHINGTON, priority 2014, dated 2021).

Sequences of proteins named here, by UniProt entry; tags and fusion partners are left off. Residues count along the entry.
UniProt Q38C91, 1-773: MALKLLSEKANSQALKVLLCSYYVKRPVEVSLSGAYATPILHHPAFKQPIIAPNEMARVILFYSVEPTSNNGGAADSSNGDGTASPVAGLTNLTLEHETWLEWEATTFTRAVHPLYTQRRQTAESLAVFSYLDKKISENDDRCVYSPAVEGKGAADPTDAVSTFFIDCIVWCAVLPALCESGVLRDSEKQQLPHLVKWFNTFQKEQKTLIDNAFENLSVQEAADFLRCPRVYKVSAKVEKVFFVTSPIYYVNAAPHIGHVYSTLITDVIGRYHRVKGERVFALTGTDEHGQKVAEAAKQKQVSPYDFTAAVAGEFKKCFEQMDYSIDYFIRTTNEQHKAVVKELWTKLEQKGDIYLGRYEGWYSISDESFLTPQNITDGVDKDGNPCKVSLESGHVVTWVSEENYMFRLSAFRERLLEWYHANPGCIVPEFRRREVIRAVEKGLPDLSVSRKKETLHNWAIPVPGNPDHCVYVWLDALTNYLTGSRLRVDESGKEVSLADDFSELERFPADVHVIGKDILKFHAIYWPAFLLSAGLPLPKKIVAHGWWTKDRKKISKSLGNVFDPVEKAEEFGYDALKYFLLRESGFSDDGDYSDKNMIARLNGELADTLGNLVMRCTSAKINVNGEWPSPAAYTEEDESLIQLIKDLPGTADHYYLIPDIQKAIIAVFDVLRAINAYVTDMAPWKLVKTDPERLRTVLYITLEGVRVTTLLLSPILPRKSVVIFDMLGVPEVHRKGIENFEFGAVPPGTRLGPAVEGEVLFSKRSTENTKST

The target of one assay is MetRS (T. brucei) (Trypanosoma brucei brucei, UniProt Q38C91). Description: MetRS (T. brucei) ATP depletion assay using Kinase-Glo. Format: biochemical. Conditions: read-out: A) MetRS (T. brucei) ATP depletion assay using Kinase-Glo, IC50. Background: Kinase-Glo reads ATP consumption through a luciferase reaction.
The next assay concerns T. brucei. Kind of assay: Growth inhibition assay of T. brucei cell cultures (Alamar Blue, 48 h). As to conditions: read-out: B) T. brucei EC50. Type of assay: cell-based. Background: Resazurin is reduced to fluorescent resorufin, in cell work by metabolically active cells.

As a reminder, the IC50 is the concentration at which inhibition is half-maximal. For orientation: EC50 means the concentration needed to bring the measured effect to its halfway point.

In the case of `O=C(C/C=C/c1ccc(Cl)cc1O)NCc1nc2ccccc2[nH]1`, the concentration for half-maximal inhibition (IC50) on MetRS (T. brucei) turned out to be 0.047 µM. The EC50 in the assay on T. brucei was over 1 µM.
For `O=C(NCc1cc(Cl)cc(Cl)c1)Nc1nc2ccc(Cl)cc2[nH]1`, the IC50 on MetRS (T. brucei) is over 10 µM. The EC50 with T. brucei came to 6.38 µM.
